This is an account of results in PMC4703070, “cryo-EM structures of the E. coli replicative DNA polymerase reveal its dynamic interactions with the DNA sliding clamp, exonuclease and τ” (eLife, 2015).

To fix the notation:
T1: E. coli DNA polymerase III α, wild type (E. coli, UniProt P10443 1-1160)
T1 construct: DNA polymerase III subunit α (PolIIIα), E. coli, wild type; parent of m1, whose fitted model covers residues 1-1160; also called PolIIIα; wild-type PolIIIα; source: E. coli (DE3) BL21, purified (as described in Toste Rêgo et al., 2013)
T1 sequence (looked up): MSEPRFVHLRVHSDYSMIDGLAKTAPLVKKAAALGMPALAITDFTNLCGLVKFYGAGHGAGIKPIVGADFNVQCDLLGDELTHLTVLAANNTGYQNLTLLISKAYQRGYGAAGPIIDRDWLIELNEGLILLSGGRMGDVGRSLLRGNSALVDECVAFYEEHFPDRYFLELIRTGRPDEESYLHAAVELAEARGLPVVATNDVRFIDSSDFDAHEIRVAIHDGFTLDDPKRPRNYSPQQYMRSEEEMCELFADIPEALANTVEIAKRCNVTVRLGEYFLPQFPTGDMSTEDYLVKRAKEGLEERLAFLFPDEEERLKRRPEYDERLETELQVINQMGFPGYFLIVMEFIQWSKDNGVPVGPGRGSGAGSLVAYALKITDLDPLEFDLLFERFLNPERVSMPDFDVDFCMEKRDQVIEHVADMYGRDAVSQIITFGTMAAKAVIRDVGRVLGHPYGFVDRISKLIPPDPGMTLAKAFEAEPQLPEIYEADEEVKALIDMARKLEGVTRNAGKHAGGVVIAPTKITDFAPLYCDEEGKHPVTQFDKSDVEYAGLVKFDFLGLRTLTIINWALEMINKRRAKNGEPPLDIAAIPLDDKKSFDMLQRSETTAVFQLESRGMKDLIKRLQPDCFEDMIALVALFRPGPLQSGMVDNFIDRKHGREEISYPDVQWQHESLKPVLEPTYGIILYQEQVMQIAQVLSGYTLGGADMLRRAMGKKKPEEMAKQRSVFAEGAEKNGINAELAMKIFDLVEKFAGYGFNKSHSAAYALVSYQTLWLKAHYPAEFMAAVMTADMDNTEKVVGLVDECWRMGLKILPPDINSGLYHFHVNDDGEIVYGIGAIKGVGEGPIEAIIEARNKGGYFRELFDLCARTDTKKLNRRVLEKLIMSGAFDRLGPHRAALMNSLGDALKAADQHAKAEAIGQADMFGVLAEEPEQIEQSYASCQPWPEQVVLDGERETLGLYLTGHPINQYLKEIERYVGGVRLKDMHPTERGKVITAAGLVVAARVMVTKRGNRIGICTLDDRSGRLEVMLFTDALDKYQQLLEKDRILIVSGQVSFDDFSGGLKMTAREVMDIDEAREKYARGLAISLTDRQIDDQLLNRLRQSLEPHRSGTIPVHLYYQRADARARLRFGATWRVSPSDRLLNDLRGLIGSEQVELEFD

T2: E. coli DNA polymerase III α with improved clamp binding motif (PolIIIα^QLDLF) (E. coli, UniProt P10443 1-1160, 920-924 QADMF to QLDLF)
T2 construct: DNA polymerase III subunit α (PolIIIα), E. coli; It says that His-tags were removed with 3C protease but not which of the proteins carried one; PDB 2HNH lacks the C-terminal tail; source: E. coli (DE3) BL21, purified (as described in Toste Rêgo et al., 2013)
T2 sequence (looked up): T1 sequence (looked up) with A921L, M923L

B1: E. coli proofreading exonuclease ε, wild type (enzyme, UniProt P03007 1-243, looked up)
chain: MSTAITRQIVLDTETTGMNQIGAHYEGHKIIEIGAVEVVNRRLTGNNFHVYLKPDRLVDPEAFGVHGIADEFLLDKPTFAEVADEFMDYIRGAELVIHNAAFDIGFMDYEFSLLKRDIPKTNTFCKVTDSLAVARKMFPGKRNSLDALCARYEIDNSKRTLHGALLDAQILAEVYLAMTGGQTSMAFAMEGETQQQQGEATIQRIVRQASKLRVVFATDEEIAAHEARLDLVQKKGGSCLWRA
notes: DNA polymerase III subunit ε (proofreading exonuclease), E. coli, wild type; parent of m3; source: E. coli (DE3) BL21, purified (as described in Toste Rêgo et al., 2013)
B2: E. coli DNA sliding clamp β (natural protein)
chain: MKFTVEREHLLKPLQQVSGPLGGRPTLPILGNLLLQVADGTLSLTGTDLEMEMVARVALVQPHEPGATTVPARKFFDICRGLPEGAEIAVQLEGERMLVRSGRSRFSLSTLPAADFPNLDDWQSEVEFTLPQATMKRLIEATQFSMAHQDVRYYLNGMLFETEGEELRTVATDGHRLAVCSMPIGQSLPSHSVIVPRKGVIELMRMLDGGDNPLRVQIGSNNIRAHVGDFIFTSKLVDGRFPDYRRVLPKNPDKHLEAGCDLLKQAFARAAILSNEKFRGVRLYVSENQLKITANNPEQEEAEEILDVTYSGAEMEIGFNVSYVLDVLNALKCENVRMMLTDSVSSVQIEDAASQSAAYVVMPMRL
notes: DNA polymerase III β subunit (DNA sliding clamp), E. coli; dimeric; It says that His-tags were removed with 3C protease but not which of the proteins carried one; also called β subunit; source: E. coli (DE3) BL21, purified (as described in Toste Rêgo et al., 2013)

Changes are numbered by the printed parent chain.

What all share (settings): both partners purified
Assay [1] deals with B2. In words: SEC; 2.4 mL Superdex 200 Increase, 25 mM Hepes pH 7.5, 150 mM NaCl, 2 mM DTT; PolIIIα-clamp-exonuclease complex assembled at 10, 1 and 0.1 μM, 50 μL injected.
The target in assay [2] is T1, E. coli DNA polymerase III α, wild type. The description is as above.
Assay [3] has as its target T2, E. coli DNA polymerase III α with …. The assay is described as follows: cryo-EM structure; four-protein complex assembled at 15 μM, gel filtration in 25 mM Hepes pH 7.5, 50 mM potassium glutamate, 3 mM magnesium acetate, 2 mM DTT; peak fraction (~4 μM) with 20 μM 25 bp DNA substrate; DNA-free (8.3 Å), DNA-bound (8.0 Å) and DNA-bound without tail (7.3 Å) classes from a single data set; crystal and NMR structures fitted as rigid bodies.

Take B1: the binding result in assay [1] and in assay [2] was “binds” each time.
For the molecule B2, the binding result in assay [3] is “binds”.
